This series relates to DENV-2 16681 strain. As to the kind of experiment: DENV-2 antiviral assay (eGFP fluorescence, Vero cells). It counts as cell-based, Dengue virus. Particulars: SI=CC50/EC50, DENV-2 antiviral assay. How it is done: The antiviral activity of all the compounds of the invention was tested against the DENV-2 16681 strain which was labeled with enhanced green fluorescent protein (eGPF; Table 1). The culture medium consists of minimal essential medium supplemented with 2% of heat-inactivated fetal calf serum, 0.04% gentamycin (50 mg/mL) and 2 mM of L-glutamine. Vero cells, obtained from ECACC, were suspended in culture medium and 25 μL was added to 384-well plates (2500 cells/well), which already contain the antiviral compounds. Typically, these plates contain a 5-fold serial dilution of 9 dilution steps of the test compound at 200 times the final concentration in 100% DMSO (200 nL). […] Finally, each plate contains wells which are assigned as virus controls (containing cells and virus in the absence of compound), cell controls (containing cells in the absence of virus and compound) and medium controls (containing medium in the absence of cells, virus and compounds). To the wells assigned as medium control, 25 μL of culture medium was added instead of Vero cells. Once the cells were added to the plates, the plates were incubated for 30 minutes at room temperature to allow the cells to distribute evenly within the wells. Next, the plates were incubated in a fully humidified incubator (37° C., 5% CO2) until the next day. Then, DENV-2 strain 16681, labeled with eGFP, was added at a multiplicity of infection (MOI) of 0.5. Therefore, 15 μL of virus suspension was added to all the wells containing test compound and to the wells assigned as virus control. In parallel, 15 μL of culture medium was added to the medium and cell controls. Next, the plates were incubated for 3 days in a fully humidified incubator (37° C., 5% CO2). At the day of the read out, the eGFP fluorescence was measured using an automated fluorescence microscope at 488 nm (blue laser). Using an in-house LIMS system, inhibition dose response curves for each compound were calculated and the half maximal effective concentration (EC50) was determined. Therefore, the percent inhibition (I) for every test concentration is calculated using the following formula: I=100*(ST−SCC)/(SVC−SCC); ST, SCC and SVC are the amount of eGFP signal in the test compound, cell control and virus control wells, respectively. The EC50 represents the concentration of a compound at which the virus replication is inhibited with 50%, as measured by a 50% reduction of the eGFP fluorescent intensity compared to the virus control. The EC50 is calculated using linear interpolation.

The compound `COc1cc(NC(C(=O)c2c[nH]c3cc(F)ccc23)c2ccc(Cl)cc2OC)cc(S(C)(=O)=O)c1` (racemic) [Compound 1, 2-(4-chloro-2-methoxyphenyl)-1-(6-fluoro-1H-indol-3-yl)-2-((3-methoxy-5-(methylsulfonyl)phenyl)amino)ethanone] registered an SI of 11500.

For the compound `COc1cc(NC(C(=O)c2c[nH]c3c(C)c(F)ccc23)c2ccc(Cl)cc2OC)cc(S(C)(=O)=O)c1` (racemic) [Compound 2, 2-(4-chloro-2-methoxyphenyl)-1-(6-fluoro-7-methyl-1H-indol-3-yl)-2-((3-methoxy-5-(methylsulfonyl)phenyl)amino)ethanone], the SI is recorded as 8410.

The compound `COc1cc(NC(C(=O)c2c[nH]c3cc(OC)ccc23)c2ccc(Cl)cc2OC)cc(S(C)(=O)=O)c1` (racemic) [Compound 3, 2-(4-chloro-2-methoxyphenyl)-1-(6-methoxy-1H-indol-3-yl)-2-((3-methoxy-5-(methylsulfonyl)phenyl)amino)ethanone] yielded an SI of 37700.

In the case of `COc1cc(NC(C(=O)c2c[nH]c3cc(OC)c(C)cc23)c2ccc(Cl)cc2OC)cc(S(C)(=O)=O)c1` (racemic) [Compound 4, 2-(4-chloro-2-methoxyphenyl)-2-((3-methoxy-5-(methyl-sulfonyl)phenyl)amino)-1-(6-methoxy-5-methyl-1H-indol-3-yl)ethanone], the SI amounted to 14900.

For `COc1cc(NC(C(=O)c2c[nH]c3cc(OC)c(F)cc23)c2ccc(Cl)cc2OC)cc(S(C)(=O)=O)c1` (racemic) [Compound 5, 2-(4-chloro-2-methoxyphenyl)-1-(5-fluoro-6-methoxy-1H-indol-3-yl)-2-((3-methoxy-5-(methylsulfonyl)phenyl)amino)ethanone], the SI amounted to 8780.

In the case of `COc1cc(NC(C(=O)c2c[nH]c3cc(F)c(C)cc23)c2ccc(Cl)cc2OC)cc(S(C)(=O)=O)c1` (racemic) [Compound 7, 2-(4-chloro-2-methoxyphenyl)-1-(6-fluoro-5-methyl-1H-indol-3-yl)-2-((3-methoxy-5-(methylsulfonyl)phenyl)amino)ethanone], the SI is recorded as over 7040.

Consider `COc1cc(NC(C(=O)c2c[nH]c3ccc(C(F)(F)F)cc23)c2ccc(Cl)cc2OC)cc(S(C)(=O)=O)c1` (racemic) [Compound 8, 2-(4-chloro-2-methoxyphenyl)-2-((3-methoxy-5-(methyl-sulfonyl)phenyl)amino)-1-(5-(trifluoromethyl)-1H-indol-3-yl)ethanone], for which the SI amounted to 30400.

Compound `COc1cc(NC(C(=O)c2c[nH]c3ccc(OC(F)(F)F)cc23)c2ccc(Cl)cc2OC)cc(S(C)(=O)=O)c1` (racemic) [Compound 9, 2-(4-chloro-2-methoxyphenyl)-2-((3-methoxy-5-(methyl-sulfonyl)phenyl)amino)-1-(5-(trifluoromethoxy)-1H-indol-3-yl)ethanone] registered an SI of over 39100.

Regarding `COc1cc(NC(C(=O)c2c[nH]c3cc(F)ccc23)c2ccc(Cl)cc2OC)cc(S(C)(=O)=O)c1` (single isomer, unassigned) [Compound 1B, 2-(4-chloro-2-methoxyphenyl)-1-(6-fluoro-1H-indol-3-yl)-2-((3-methoxy-5-(methylsulfonyl)phenyl)amino)ethanone], the SI amounted to 530.

With `COc1cc(NC(C(=O)c2c[nH]c3c(C)c(F)ccc23)c2ccc(Cl)cc2OC)cc(S(C)(=O)=O)c1` (single isomer, unassigned) [Compound 2B, 2-(4-chloro-2-methoxyphenyl)-1-(6-fluoro-7-methyl-1H-indol-3-yl)-2-((3-methoxy-5-(methylsulfonyl)phenyl)amino)ethanone], the SI turned out to be 285.

The compound `COc1cc(NC(C(=O)c2c[nH]c3cc(OC)ccc23)c2ccc(Cl)cc2OC)cc(S(C)(=O)=O)c1` (single isomer, unassigned) [Compound 3B, 2-(4-chloro-2-methoxyphenyl)-1-(6-methoxy-1H-indol-3-yl)-2-((3-methoxy-5-(methylsulfonyl)phenyl)amino)ethanone] yielded an SI of 2480.

In the case of `COc1cc(NC(C(=O)c2c[nH]c3cc(OC)c(C)cc23)c2ccc(Cl)cc2OC)cc(S(C)(=O)=O)c1` (single isomer, unassigned) [Compound 4B, 2-(4-chloro-2-methoxyphenyl)-2-((3-methoxy-5-(methyl-sulfonyl)phenyl)amino)-1-(6-methoxy-5-methyl-1H-indol-3-yl)ethanone], the SI was 341.

Turning to `COc1cc(NC(C(=O)c2c[nH]c3cc(OC)c(F)cc23)c2ccc(Cl)cc2OC)cc(S(C)(=O)=O)c1` (single isomer, unassigned) [Compound 5B, 2-(4-chloro-2-methoxyphenyl)-1-(5-fluoro-6-methoxy-1H-indol-3-yl)-2-((3-methoxy-5-(methylsulfonyl)phenyl)amino)ethanone], the SI was 206.

In turn, `COc1cc(NC(C(=O)c2c[nH]c3c(C)c(OC)ccc23)c2ccc(Cl)cc2OC)cc(S(C)(=O)=O)c1` (single isomer, unassigned) [Compound 6B, 2-(4-chloro-2-methoxyphenyl)-2-((3-methoxy-5-(methyl-sulfonyl)phenyl)amino)-1-(6-methoxy-7-methyl-1H-indol-3-yl)ethanone] came in with an SI of 603.

For `COc1cc(NC(C(=O)c2c[nH]c3cc(F)c(C)cc23)c2ccc(Cl)cc2OC)cc(S(C)(=O)=O)c1` (single isomer, unassigned) [Compound 7A, 2-(4-chloro-2-methoxyphenyl)-1-(6-fluoro-5-methyl-1H-indol-3-yl)-2-((3-methoxy-5-(methylsulfonyl)phenyl)amino)ethanone], the SI was determined as 538.

Consider `COc1cc(NC(C(=O)c2c[nH]c3ccc(C(F)(F)F)cc23)c2ccc(Cl)cc2OC)cc(S(C)(=O)=O)c1` (single isomer, unassigned) [Compound 8A, 2-(4-chloro-2-methoxyphenyl)-2-((3-methoxy-5-(methyl-sulfonyl)phenyl)amino)-1-(5-(trifluoromethyl)-1H-indol-3-yl)ethanone], for which the SI amounted to 2510.

For the compound `COc1cc(NC(C(=O)c2c[nH]c3ccc(OC(F)(F)F)cc23)c2ccc(Cl)cc2OC)cc(S(C)(=O)=O)c1` (single isomer, unassigned) [Compound 9B, 2-(4-chloro-2-methoxyphenyl)-2-((3-methoxy-5-(methyl-sulfonyl)phenyl)amino)-1-(5-(trifluoromethoxy)-1H-indol-3-yl)ethanone], the SI stood at 1480.

Regarding `COc1cc(NC(C(=O)c2c[nH]c3cc(OC)c(OC(F)(F)F)cc23)c2ccc(Cl)cc2OC)cc(S(C)(=O)=O)c1` (single isomer, unassigned) [Compound 10B, 2-(4-chloro-2-methoxyphenyl)-2-((3-methoxy-5-(methylsulfonyl)phenyl)amino)-1-(6-methoxy-5-(trifluoromethoxy)-1H-indol-3-yl)ethanone], the SI is given as 2530.

In turn, `COc1cc(NC(C(=O)c2c[nH]c3c(C)cc(OC(F)(F)F)cc23)c2ccc(Cl)cc2OC)cc(S(C)(=O)=O)c1` (single isomer, unassigned) [Compound 11B, 2-(4-chloro-2-methoxyphenyl)-2-((3-methoxy-5-(methylsulfonyl)phenyl)amino)-1-(7-methyl-5-(trifluoromethoxy)-1H-indol-3-yl)ethanone] came in with an SI of 2220.

Values taken from US12172959B2, “Mono- or di-substituted indole derivatives as dengue viral replication inhibitors” (priority 2015, dated 2024).
